# Potato spindle tuber viroid, stem 3: variant abundance in plants

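Three N. benthamiana plants were inoculated with the whole mutant pool. Progeny were sequenced from the inoculated region (day 5), the margin of the inoculated leaf (day 10) and systemic leaves (day 12).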

The pool varies stem 3 of the PSTVd intermediate strain in the pattern GUGGUUCCGNANNCNN; wild type is GUGGUUCCGGAACCGC (upper and lower strand joined, each 5' to 3', the first 8 letters being the upper strand).

Numbers give reads per thousand; 0 = not seen among the reads, higher = more abundant.
Each value is the mean of three plants.
"Pool" is the share in the plasmid pool used as inoculum, on the same scale.
The inoculated region was read from the minus strand, the other sites from the plus strand.
IR is the inoculated region, LM the leaf margin, Sys the systemic leaves.
Wild type was 17.3 per thousand in the pool and the most common sequence in every sample (inoculated region 330, 345, 235; leaf margin 794, 766, 816; systemic leaves 830, 792, 869).
Sequences that differ at fixed positions probably stem from PCR or sequencing errors, and defective variants can be carried along by functional ones.
With 27,691-54,225 reads a sample, very low values are single reads.

| sequence | pool | IR | LM | Sys |
|---|---|---|---|---|
| GUGGUUCCGCAUUCCU | 0.877 | 0.821 | 0 | 0 |
| GUGGUUCCGGACUCGC | 1.57 | 0.659 | 0.0321 | 0.00811 |
| GUGGUUCCGCACGCAC | 0.739 | 0.343 | 0.0106 | 0 |
| GUGGUUCCGAAACCUG | 0.708 | 0.347 | 0.0215 | 0 |
| GUGGUUCCGCAAUCAC | 0.739 | 0.727 | 0.120 | 0 |
| GUGGUUCCGUAGUCCC | 1.71 | 1.09 | 0.251 | 0 |
| GUGGUUCCGCAGGCGG | 0.877 | 0.324 | 0.0321 | 0 |
| GUGGUUCCGGAGACGC | 0.723 | 0.258 | 0.0241 | 0 |
| GUGGUUCCGUAAGCAA | 0.677 | 0.256 | 0.00944 | 0 |
| GUGGUUCCGCAUUCAG | 0.877 | 0.828 | 0 | 0 |
| GUGGUUCCGGAGGCAA | 1.17 | 0.917 | 0 | 0.00621 |
| GUGGUUCCGGAAUCGG | 1.02 | 0.284 | 0.0106 | 0.00621 |
| GUGGUUCCGUACACCA | 1.02 | 0.271 | 0.0212 | 0 |
| GUGGUUCCGCAACCCU | 0.585 | 0.417 | 0.0332 | 0 |
| GUGGUUCCGGACACAA | 0.831 | 0.228 | 0.0226 | 0 |
| GUGGUUCCGUACUCAU | 0.800 | 0.835 | 0.554 | 0 |
| GUGGUUCGGUAUUCGU | 0.0154 | 0 | 0 | 0 |
| GUGGUUCCGCAGACCG | 0.693 | 0.340 | 0.0120 | 0 |
| GUGGUUCCGUACUCUC | 0.862 | 0.394 | 0.0120 | 0 |
| GUGGUUCCGCAAACUU | 1.45 | 0.447 | 0 | 0.0497 |
| GUGGUUCCGCACCCGG | 0.831 | 0.215 | 0.00944 | 0 |
| GUGGUUCCGUAUUGGU | 0.400 | 0.875 | 0.219 | 0.0682 |
| GUGGUUCCGUAUGCCU | 1.03 | 0.337 | 0.0215 | 0 |
| GUGGUUCCGGACCCCA | 0.708 | 0.378 | 0 | 0 |
| GUGGUUCCGAAACCAG | 0.831 | 0.966 | 0 | 0 |
| GUGGUUCCGUACUCGG | 0.816 | 0.290 | 0 | 0 |
| GUGGGUCCGUAGUCGU | 0.0154 | 0.00901 | 0 | 0.00811 |
| GUGGUUCCGUAUGCAU | 0.923 | 0.732 | 0 | 0.0578 |
| GUCGUUCCGUAACCGU | 0.0154 | 0 | 0 | 0 |
| GUGGUUCCGAACCCUU | 0.954 | 0.704 | 0.567 | 0.00621 |
| GUGGUUCCGAAUCCAU | 0.939 | 0.748 | 0.0226 | 0 |
| GUGGUUCCGAAAACUG | 0.862 | 0.268 | 0.0295 | 0 |
| GUGGUUCCGGAUUCCA | 0.908 | 0.301 | 0.00944 | 0 |
| GUGGUUCCGGACGCCC | 0.769 | 0.398 | 0.0226 | 0 |
| GUGGUUCCGGACACGU | 0.769 | 0.206 | 0.0226 | 0 |
| GUGGUUCCGAACGCUG | 0.908 | 0.426 | 0.0241 | 0 |
| GUGGUUCCGGACGCCU | 1.03 | 0.210 | 0.0106 | 0 |
| GUGGUUCCGGACCCGG | 2.08 | 0.802 | 0.282 | 0.0310 |
| GUGGUUCCGGAGCCUG | 0.831 | 0.276 | 0.0106 | 0 |
| GUGGUUCCGAAGGCCU | 0.862 | 0.896 | 0.520 | 0 |
| GUGGUUCCGAACCCGC | 0.754 | 0.361 | 0 | 0 |
| GUGGUUCCGUAUUCAC | 1.77 | 1.48 | 0.0309 | 0.115 |
| GUGGUUCCGUAUCCUA | 0.739 | 0.286 | 0.0241 | 0 |
| GUGGUUCCGUACCCUU | 0.754 | 0.319 | 0.0120 | 0 |
| GUGGUUCCGAAAUCUA | 1.43 | 1.17 | 0.0120 | 0 |
| GUGGUUCCGGAUACAG | 0.800 | 0.254 | 0 | 0 |
| GUGGUUCCGCAAGCAA | 0.923 | 0.252 | 0.0226 | 0 |
| GUGGUUCCGUAGUCCA | 1.83 | 1.55 | 0.0321 | 0.142 |
| GUGGUUCAGGAGCCAA | 0.0154 | 0 | 0 | 0 |
| GUGGUUCCGUAGCCUG | 0.785 | 0.364 | 0.00944 | 0 |
| GUGGUUCCGGAAGCUG | 0.600 | 0.319 | 0 | 0 |
| GUGGUUCCGCAAACCG | 1.52 | 0.659 | 0 | 0.00621 |

The last 4 entries again:

{"sequence": "GUGGUUCAGGAGCCAA", "pool": "0.0154", "IR": 0, "LM": 0, "Sys": 0}
{"sequence": "GUGGUUCCGUAGCCUG", "pool": "0.785", "IR": 0.364, "LM": 0.00944, "Sys": 0}
{"sequence": "GUGGUUCCGGAAGCUG", "pool": "0.600", "IR": 0.319, "LM": 0, "Sys": 0}
{"sequence": "GUGGUUCCGCAAACCG", "pool": "1.52", "IR": 0.659, "LM": 0, "Sys": 0.00621}

Source: Wu et al. 2024 (doi:10.1371/journal.ppat.1012142), supplementary data.